The results in this text go back to PubChem BioAssay AID504636 (National Center for Advancing Translational Sciences (NCATS), 2011).

Chains of the proteins cited; added tags and fusions are not shown. Lines headed by an entry give the natural chain unless they say otherwise; changes in a name come on top.
UniProt O15648: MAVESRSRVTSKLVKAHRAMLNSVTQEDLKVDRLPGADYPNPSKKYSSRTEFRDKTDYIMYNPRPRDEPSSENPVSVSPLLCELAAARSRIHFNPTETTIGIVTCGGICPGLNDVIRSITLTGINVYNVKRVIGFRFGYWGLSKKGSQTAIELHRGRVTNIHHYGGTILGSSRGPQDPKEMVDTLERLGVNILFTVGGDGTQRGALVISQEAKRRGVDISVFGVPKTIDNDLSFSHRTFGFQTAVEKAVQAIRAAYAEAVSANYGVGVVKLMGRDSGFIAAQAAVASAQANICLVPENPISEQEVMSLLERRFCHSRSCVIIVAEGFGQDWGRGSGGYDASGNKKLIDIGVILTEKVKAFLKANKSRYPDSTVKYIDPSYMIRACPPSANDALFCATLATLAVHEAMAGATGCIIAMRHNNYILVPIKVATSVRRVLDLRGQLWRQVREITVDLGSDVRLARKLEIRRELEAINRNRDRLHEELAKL

The entries are a selection whose mix differs from that of the whole data set. Results filed as inconclusive are left out. Active and inactive are the calls of the source. Calls follow the shape of the full dose curve.
Potency is read from the fitted curve at half-maximal effect.

For the assay, the target named is ATP-dependent 6-phosphofructokinase (Trypanosoma brucei brucei) (UniProt O15648). Description: Tb PFK orthogonal confirmatory assay using ATP depletion (Kinase-Glo Plus) as an alternative measure of Tb PFK activity: Hit Validation. Also: nearly all actives have a fitted effect of over 60% in size. The conditions noted are these: Tb PFK enzyme, Kinase-Glo Plus luminescence. The text has this:
Various species of the protozoan family Trypanosomatidae are responsible for a range of serious human diseases in tropical and subtropical areas of the world. […] Many of the disorders caused by trypanosomatids are fatal if left untreated, but most currently used drugs are inefficient and toxic.
Oxidative metabolism involving the mitochondrial tricarboxylic acid cycle and oxidative phosphorylation are repressed in these parasites, and recent RNA interference (RNAi) experiments have shown that even partial depletion of certain individual glycolytic enzymes can lead to the death of cultured parasites. One such glycolytic enzyme, phosphofructokinase (PFK), catalyzes the formation of fructose-1,6-bisphosphate (F1,6BP) and ADP from fructose-6-phosphate (F6P) and ATP, and in many metabolic circumstances makes an important contribution to the control of flux through the glycolytic pathway. […]
Substrate buffer was dispensed into white, solid 1536-well plates at 3ul/well in 0.1M triethanolamine (TEA) buffer, pH 8.0, containing final concentrations of 5 mM MgCl2, 0.01% Tween20, 0.5 mM fructose-6-phosphate (F6P) and 0.1mM ATP. […] The plates were measured on a ViewLux plate reader for luminescent signal using a clear filter with a one second exposure. The %Activity was determined from the corrected luminescence values. […]
Take `O=P(Nc1nccs1)(c1ccccc1)c1nc2ccccc2s1` (stereo unspecified): the Potency is active: 23.9 µM.
